Measured values taken from patent US20170253607A1.

Target: HIV-1 PR (Human immunodeficiency virus type 1 group M subtype B, UniProt P04585)
Assay: HIV-protease inhibitory activity assay (FRET peptide substrate)
Type: biochemical
Conditions: Test Example 1

SMILES: COc1ccc(S(=O)(=O)N(CC(C)C)C[C@@H](O)[C@H](Cc2ccc(OCc3ccccc3-c3sc4c(c3C(=O)O)Cc3ccccc3-4)cc2)NC(=O)O[C@H]2CO[C@@]3(C)OCC[C@@H]23)cc1
- IC50: 1.02 nM

SMILES: COc1ccc(S(=O)(=O)N(CC(C)C)C[C@@H](O)[C@H](Cc2ccc(NC[C@H]3CCCC[C@H]3NC(=O)c3sc4c(c3C(=O)O)CC(C)(C)CC4)cc2)NC(=O)O[C@H]2CO[C@@]3(C)OCC[C@@H]23)cc1
- IC50: 1.9 nM

SMILES: COc1ccc(S(=O)(=O)N(CC(C)C)C[C@@H](O)[C@H](Cc2ccc(OCCn3ccn4cc(C(=O)NCc5ccc(F)cc5F)c(=O)c(O)c4c3=O)cc2)NC(=O)O[C@H]2CO[C@@]3(C)OCC[C@@H]23)cc1
- IC50: 11.6 nM

SMILES: COc1ccc(S(=O)(=O)N(CC(C)C)C[C@@H](O)[C@H](Cc2ccc(OCc3ccccc3-c3sc4c(c3C(=O)O)CC(C)(C)CC4O)cc2)NC(=O)O[C@H]2CO[C@@]3(C)OCC[C@@H]23)cc1 (some centres unmarked)
- IC50: 1 nM

SMILES: COc1ccc(S(=O)(=O)N(CC(C)C)C[C@@H](O)[C@H](Cc2ccc(OCc3ccccc3-c3sc4c(c3C(=O)O)CCC(F)(F)C4)cc2)NC(=O)O[C@H]2CO[C@@]3(C)OCC[C@@H]23)cc1
- IC50: 0.89 nM

SMILES: CC(C)CN(C[C@@H](O)[C@H](Cc1ccc(OCc2ccc(-c3ccccc3)cc2C(=O)O)cc1)NC(=O)O[C@H]1CO[C@@]2(C)OCC[C@@H]12)S(=O)(=O)c1ccc2ncsc2c1
- IC50: 1.28 nM

SMILES: COc1ccc(S(=O)(=O)N(CC(C)C)C[C@@H](O)[C@H](Cc2ccc(CNC(=O)c3cc(Cl)cc(Cl)c3O)cc2)NC(=O)O[C@H]2CO[C@@]3(C)OCC[C@@H]23)cc1
- IC50: 1.69 nM

SMILES: COc1ccc(S(=O)(=O)N(CC(C)C)C[C@@H](O)[C@H](Cc2ccc(OCC3CCCC3c3sc4c(c3C(=O)O)CC(C)(C)CC4)cc2)NC(=O)O[C@H]2CO[C@@]3(C)OCC[C@@H]23)cc1 (single isomer, unassigned) [I-9-2]
- IC50: 1.56 nM

SMILES: COc1ccc(S(=O)(=O)N(CC(C)C)C[C@@H](O)[C@H](Cc2ccc(N[C@H]3CCc4c(-c5sc6c(c5C(=O)O)CC(C)(C)CC6)cccc43)cc2)NC(=O)O[C@H]2CO[C@@]3(C)OCC[C@@H]23)cc1
- IC50: 3.8 nM

SMILES: COc1ccc(S(=O)(=O)N(CC(C)C)C[C@@H](O)[C@H](Cc2ccc(Nc3nccc(-c4sc5c(c4C(=O)O)CC(C)(C)CC5)n3)cc2)NC(=O)O[C@H]2CO[C@@]3(C)OCC[C@@H]23)cc1
- IC50: 1.83 nM

SMILES: COc1ccc(S(=O)(=O)N(CC(C)C)C[C@@H](O)[C@H](Cc2ccc(OCc3ccccc3-c3ccc4c(C(=O)O)c(C5=CCC(C)(C)CC5)sc4c3)cc2)NC(=O)O[C@H]2CO[C@@]3(C)OCC[C@@H]23)cc1
- IC50: 3.14 nM

SMILES: COc1ccc(S(=O)(=O)N(CC(C)C)C[C@@H](O)[C@H](Cc2ccc(NCc3cc(-c4ccsc4)ccc3-c3sc4c(c3C(=O)O)CC(C)(C)CC4)cc2)NC(=O)O[C@H]2CO[C@@]3(C)OCC[C@@H]23)cc1
- IC50: 2.17 nM

SMILES: COc1ccc(S(=O)(=O)N(CC(C)C)C[C@@H](O)[C@H](Cc2ccc(NCc3ccc(C#N)c(-c4sc5c(c4C(=O)O)CC(C)(C)CC5)c3)cc2)NC(=O)O[C@H]2CO[C@@]3(C)OCC[C@@H]23)cc1
- IC50: 1.34 nM

SMILES: COc1ccc(S(=O)(=O)N(CC(C)C)C[C@@H](O)[C@H](Cc2ccc(OCc3ccccc3C3=C(C(=O)O)CCC3Cc3ccccc3)cc2)NC(=O)O[C@H]2CO[C@@]3(C)OCC[C@@H]23)cc1 (some centres unmarked)
- IC50: 2.29 nM

SMILES: COc1ccc(S(=O)(=O)N(CC(C)C)C[C@@H](O)[C@H](Cc2ccc(CN(C)[C@H]3CCCC[C@H]3c3sc4c(c3C(=O)O)CC(C)(C)CC4)cc2)NC(=O)O[C@H]2CO[C@@]3(C)OCC[C@@H]23)cc1
- IC50: 1.98 nM

SMILES: COc1ccc(S(=O)(=O)N(CC(C)C)C[C@@H](O)[C@H](Cc2ccc(OCc3ccccc3-c3sc4c(c3C(=O)O)CC3(CC4)OCCO3)cc2)NC(=O)O[C@H]2CO[C@@]3(C)OCC[C@@H]23)cc1
- IC50: 0.87 nM

SMILES: CC(C)CN(C[C@@H](O)[C@H](Cc1ccccc1)NC(=O)O[C@H]1CO[C@@]2(C)OCC[C@@H]12)S(=O)(=O)c1ccc2nc(NCc3cccc(-c4sc5c(c4C(=O)O)CC(C)(C)CC5)c3)sc2c1
- IC50: 2.22 nM

SMILES: COC(=O)N[C@H](C(=O)NC(Cc1ccc(-c2sc3c(c2C(=O)OC(C)(C)C)CC(C)(C)CC3)cc1)[C@@H](O)C[C@@H](Cc1ccccc1F)C(=O)N[C@H]1c2cc(F)cc(Cl)c2OC[C@H]1O)C(C)(C)C (some centres unmarked)
- IC50: 6.83 nM

SMILES: CC(C)CN(C[C@@H](O)[C@H](Cc1ccccc1)NC(=O)O[C@H]1CO[C@@]2(C)OCC[C@@H]12)S(=O)(=O)c1ccc2nc(NCCOc3ccc(-c4sc5c(c4C(=O)O)CC(C)(C)CC5)cc3)sc2c1
- IC50: 1.02 nM

SMILES: COc1ccc(S(=O)(=O)N(CC(C)C)C[C@@H](O)[C@H](Cc2ccc(OCc3ccccc3-c3sc4c(c3C(=O)O)CC(C)(C)CC4)cc2)NC(=O)O[C@H]2CO[C@H]3OC[C@H](OCCO)[C@H]32)cc1
- IC50: 1.3 nM

SMILES: COc1ccc(S(=O)(=O)N(CC(C)C)C[C@@H](O)[C@H](Cc2ccc(OCc3ccccc3-c3sc4c(c3C(=O)O)CCC4)cc2)NC(=O)O[C@H]2CO[C@@]3(C)OCC[C@@H]23)cc1
- IC50: 3.08 nM

SMILES: COc1ccc(S(=O)(=O)N(CC(C)C)C[C@@H](O)[C@H](Cc2ccccc2)NC(=O)O[C@H]2CO[C@@]3(CNCc4sc5c(c4C(=O)O)CC(C)(C)CC5)OCC[C@@H]23)cc1
- IC50: 0.72 nM

SMILES: COc1ccc(S(=O)(=O)N(CC(C)C)C[C@@H](O)[C@H](Cc2ccc(OCC3CCCC3c3sc4c(c3C(=O)O)CC(C)(C)CC4)cc2)NC(=O)O[C@H]2CO[C@@]3(C)OCC[C@@H]23)cc1 (single isomer, unassigned) [I-9-1]
- IC50: 1.53 nM

SMILES: CC(C)CN(C[C@@H](O)[C@H](Cc1ccccc1)NC(=O)O[C@H]1CO[C@@]2(C)OCC[C@@H]12)S(=O)(=O)c1ccc(NCc2ccc(-c3sc4c(c3C(=O)O)CC(C)(C)CC4)c(F)c2)cc1
- IC50: 3.53 nM

SMILES: CC(C)CN(C[C@@H](O)[C@H](Cc1ccccc1)NC(=O)O[C@H]1CO[C@@]2(C)OCC[C@@H]12)S(=O)(=O)c1ccc2nc(NCCc3ccc(-c4sc5c(c4C(=O)O)CC(C)(C)CC5)cc3)sc2c1
- IC50: 0.84 nM

SMILES: COc1ccc(S(=O)(=O)N(CC(C)C)C[C@@H](O)[C@H](Cc2ccc(OCc3ccc4cc(-c5sc6c(c5C(=O)O)CCC(C)(C)C6)ccc4c3)cc2)NC(=O)O[C@H]2CO[C@@]3(C)OCC[C@@H]23)cc1
- IC50: 7.42 nM

SMILES: COc1ccc(S(=O)(=O)N(CC(C)C)C[C@@H](O)[C@H](Cc2ccc(Cn3c(=O)c4c5c(sc4c4ccccc43)CCC(C)(C)C5)cc2)NC(=O)O[C@H]2CO[C@@]3(C)OCC[C@@H]23)cc1
- IC50: 6.34 nM

SMILES: COc1ccc(S(=O)(=O)N(CC(C)C)C[C@@H](O)[C@H](Cc2ccc(OCc3ccccc3-c3cc(C(=O)O)cs3)cc2)NC(=O)O[C@H]2CO[C@@]3(C)OCC[C@@H]23)cc1
- IC50: 0.76 nM

SMILES: COc1ccc(S(=O)(=O)N(CC(C)C)C[C@@H](O)[C@H](Cc2ccc(OCc3ccccc3-c3sc4c(c3C(=O)O)CCCCCC4)cc2)NC(=O)O[C@H]2CO[C@@]3(C)OCC[C@@H]23)cc1
- IC50: 0.87 nM

SMILES: CC1(C)CCc2sc(-c3ccc(OC[C@]45OCC[C@H]4[C@@H](OC(=O)N[C@@H](Cc4ccccc4)[C@H](O)CN(CC(F)F)S(=O)(=O)c4ccc6ncsc6c4)CO5)cc3)c(C(=O)O)c2C1
- IC50: 2.85 nM

SMILES: COc1ccc(S(=O)(=O)N(CC(C)C)C[C@@H](O)[C@H](Cc2ccc(OCc3ccccc3-c3sc4c(c3C(=O)O)CCCCC4)cc2)NC(=O)O[C@H]2CO[C@@]3(C)OCC[C@@H]23)cc1
- IC50: 1.16 nM

SMILES: COc1ccc(S(=O)(=O)N(CC(C)C)C[C@@H](O)[C@H](Cc2ccccc2)NC(=O)O[C@H]2CO[C@@]3(CNC(=O)c4cc(Cl)cc(Cl)c4O)OCC[C@@H]23)cc1
- IC50: 6.62 nM
